Measurements as given in publication PMC5913971, “A Novel Piperazine-Based Drug Lead for Cryptosporidiosis from the Medicines for Malaria Venture Open-Access Malaria Box” (Antimicrobial Agents and Chemotherapy, 2018).
Some compounds share one wording; it may come from a single statement.

system: C. parvum; experiment: Parasite persistence (time-kill) assay in HCT-8 cells; type: cell-based, Cryptosporidium parvum; conditions: highest nontoxic concentration, replicates test
Experimental: Excysted C. parvum oocysts were added to >90% confluent HCT-8 cells in 384-well plates. […] At ∼24 h (i.e., the time of compound addition) and at various time intervals thereafter, parasites were washed, fixed, permeabilized, stained, and imaged as for the C. parvum growth assay. For the extended-compound-exposure experiments, the medium and compound were replaced every 3 days. A separate 384-well plate was used for each time interval. Parasite numbers were normalized to host cell nucleus numbers and are expressed as the percentage of parasites per host cell nucleus. In order to fit parasite decay curves, the effect of drugs was isolated from expected changes in parasite numbers over time by expressing the number of parasites as the percentage of the number of parasites with the control, dimethyl sulfoxide (DMSO), for each time point. Exponential decay curves were fit using GraphPad Prism software, version 6.01, and curve validity was assessed using the replicates test.

SMILES	fit of one-phase exponential decay curve
O=C(Nc1ccc(Cl)cc1)N1CCN(c2ccc3nncn3n2)CC1 [MMV665917, Clc1ccc(NC(=O)N2CCN(CC2)c3ccc4nncn4n3)cc1]	high-quality curve was readily generated
CC(C)/N=c1\cc2n(-c3ccc(Cl)cc3)c3ccccc3nc-2cc1Nc1ccc(Cl)cc1 [clofazimine]	not possible to fit exponential decay curves
CC(=O)Oc1ccccc1C(=O)Nc1ncc([N+](=O)[O-])s1 [nitazoxanide]	not possible to fit exponential decay curves
NC[C@@H]1O[C@H](O[C@H]2[C@@H](O)[C@H](O[C@@H]3[C@@H](O)[C@H](N)C[C@H](N)[C@H]3O[C@H]3O[C@H](CO)[C@@H](O)[C@H](O)[C@H]3N)O[C@@H]2CO)[C@H](N)[C@@H](O)[C@@H]1O [paromomycin]	not possible to fit exponential decay curves
